The source of these data is PMC8546121 (Nature Communications, 2021).

The target in this test is Machupo virus (MACV) L protein (Machupo virus, UniProt Q6IUF8 1-2209). The test can be described thus: pull-down.

B1: Tacaribe virus (TCRV) Z protein (natural protein)
chain: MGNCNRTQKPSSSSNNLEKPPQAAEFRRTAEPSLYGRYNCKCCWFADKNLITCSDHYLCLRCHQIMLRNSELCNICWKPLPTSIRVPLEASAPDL
As for B1, the binding result is given as “binds”.

B2: Junin virus (JUNV) Z protein (natural protein)
chain: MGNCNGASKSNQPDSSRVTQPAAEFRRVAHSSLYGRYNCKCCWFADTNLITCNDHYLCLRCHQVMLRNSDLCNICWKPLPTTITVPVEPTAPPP
Regarding B2, the binding result is “binds”.

B3: Sabiá virus (SABV) Z protein (natural protein)
chain: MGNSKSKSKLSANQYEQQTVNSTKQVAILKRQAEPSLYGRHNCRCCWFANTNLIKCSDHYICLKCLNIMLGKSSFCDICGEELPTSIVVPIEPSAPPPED
With B3, the binding result is “binds”.

B4: Chapare virus (CHAV) Z protein (natural protein)
chain: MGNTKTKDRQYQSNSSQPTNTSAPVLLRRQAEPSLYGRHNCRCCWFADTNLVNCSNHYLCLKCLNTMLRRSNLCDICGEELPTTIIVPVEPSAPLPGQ
Turning to B4, the binding result was “binds”.
